Pooled drug test results. Numbers come from NIAID ChemDB, via PubChem.

Common to all: growth or infection tests; species: Herpes simplex virus 2; endpoint: EC50

Conditions beyond the fields shown may differ between rows. ECn is the concentration giving n% inhibition of infection, replication or growth.

structure,strain or isolate,cell line,read by,result
Nc1ccn(C[C@@H](CO)OCP(=O)(O)O)c(=O)n1,Jensen,HFF,plaque count,2.1 µg/mL
CC(=O)OC[C@H]1[C@H](COC(C)=O)[C@@H](CO)O[C@H]1n1cnc2c(N)ncnc21,X-79,MEF,plaque count,238 µM
Cc1cn([C@@H]2O[C@H](CO)[C@@H](O)[C@@H]2F)c(=O)[nH]c1=O,UW-268,HELF,plaque count,0.004 µg/mL
Cn1cc(C(=O)NCc2ccc(Cl)cc2)c(=O)c2cc(CN3CCOCC3)ccc21,Jensen (wild type),HFF,plaque count,5.2 µM
Cc1cn([C@@H]2O[C@H](CO)[C@H]2CO)c(=O)[nH]c1=O,8711 (TK-),HFF,plaque count,>100 µg/mL
Nc1nc2c(ncn2COCCO)c(=O)[nH]1,91075,BHK,plaque count,0.3 µM
Nc1nc2c(ncn2COCCO)c(=O)[nH]1,HG-52,HELF,plaque count,0.03 µg/mL
Cc1cn([C@@H]2O[C@H](CO)[C@@H](O)[C@@H]2O)c(=O)[nH]c1=O,HG-52,HELF,cytopathic effect,0.66 µg/mL
O=C(O)CP(=O)(O)O,X-79,MEF,plaque count,15.6 µg/mL
Nc1nc2c(ncn2CC[C@H](O)CO)c(=O)[nH]1,91075,SIRC,plaque count,13 µM
O=c1[nH]c(=O)n([C@H]2C[C@H](O)[C@@H](CO)O2)cc1I,UW-268,HELF,plaque count,6.1 µg/mL
Nc1nc2c(ncn2CCCC(CO)CO)c(=O)[nH]1,91075,SIRC,plaque count,1.4 µM
Nc1ncnc2c1ncn2[C@@H]1O[C@H](CO)[C@@H](O)[C@@H]1O,MS,MEF,plaque count,57 µM
Nc1nc2c(ncn2CC(CO)CCO)c(=O)[nH]1,91075,BHK,plaque count,1.1 µM
O=C(NCc1ccc(Cl)cc1)c1cn2c3c(cc(CN4CCOCC4)cc3c1=O)OC(c1cccnc1)C2,Heeter (wild type),HFF,plaque count,9.8 µM
Nc1nc2c(ncn2COCCO)c(=O)[nH]1,V72019 (acyclovir-susceptible),HFF,cytopathic effect,0.5 µg/mL
O=c1[nH]c(=O)n([C@@H]2O[C@H](COP(=O)(O)O)[C@@H](O)[C@@H]2O)cc1/C=C/Br,HG-52,HELF,plaque count,26.9 µg/mL

The first 2 rows once more:

structure | strain or isolate | cell line | read by | result
Nc1ccn(C[C@@H](CO)OCP(=O)(O)O)c(=O)n1 | Jensen | HFF | plaque count | 2.1 µg/mL
CC(=O)OC[C@H]1[C@H](COC(C)=O)[C@@H](CO)O[C@H]1n1cnc2c(N)ncnc21 | X-79 | MEF | plaque count | 238 µM